Source: PubChem BioAssay AID485294 (National Center for Advancing Translational Sciences (NCATS), 2010)
The entries are a selection whose mix differs from that of the whole data set. Records with an inconclusive call do not appear. Calls of active or inactive are those of the source. Calls follow the shape of the dose curve; as a rule, active = well fitted inhibition curve with a large enough effect; inconclusive = small, poorly fitted or top-dose-only effect; inactive = flat fitted curve, though single readings scatter.

Amino acid sequences for entries named in this document (tags omitted).
UniProt P00811, whole entry: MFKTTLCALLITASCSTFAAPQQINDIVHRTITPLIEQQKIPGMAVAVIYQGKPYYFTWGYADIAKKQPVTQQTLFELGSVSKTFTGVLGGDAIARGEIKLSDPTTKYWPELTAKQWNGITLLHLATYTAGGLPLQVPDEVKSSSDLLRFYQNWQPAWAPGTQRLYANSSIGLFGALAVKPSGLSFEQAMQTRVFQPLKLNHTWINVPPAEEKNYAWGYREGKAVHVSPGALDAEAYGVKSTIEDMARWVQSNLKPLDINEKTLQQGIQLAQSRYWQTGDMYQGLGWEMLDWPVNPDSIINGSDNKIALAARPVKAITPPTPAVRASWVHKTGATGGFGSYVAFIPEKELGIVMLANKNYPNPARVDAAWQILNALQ

These compounds were tested against Beta-lactamase (Escherichia coli (strain K12)) (UniProt P00811) (assay: qHTS Inhibitors of AmpC Beta-Lactamase (assay with detergent)). Conditions: AmpC hydrolysis of nitrocefin, absorbance 480 nm, 0.01% Triton; at 114 µM (top of the series).
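Also: 0% = no-compound wells and -100% = no-enzyme wells; nearly all actives have a fitted effect of over 25% in size.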

Q: Which activity change, negative = inhibition does the source give for CP(=O)(Nc1ccccn1)Oc1ccc(Cl)cc1 (centres undefined) here?
A: inactive: 1.33%

Q: With CCOP(C)(=S)SCC(=O)NC(C)C(=O)O (centres undefined) as the compound, how does the activity change, negative = inhibition read?
A: inactive: -4.17%

Q: For CCOC(=O)c1ccc(NP(C)(=O)Oc2ccc(OC)cc2)cc1 (centres undefined), which activity change, negative = inhibition is on record?
A: inactive: -3.62%

Q: Cc1cc(C)cc(OP(C)(=O)Nc2ccc(SC(F)(F)F)cc2)c1 (centres undefined) was tested. Which activity change, negative = inhibition did it give?
A: inactive: -5.67%

Q: For CP(=O)(NC(=O)Nc1ccccc1)Oc1ccccc1 (centres undefined), which activity change, negative = inhibition is on record?
A: inactive: -16.7%

Q: With CCc1ccc(OP(C)(=O)N2CCN(c3ccc([N+](=O)[O-])cc3)CC2)cc1 (centres undefined) as the compound, how does the activity change, negative = inhibition read?
A: inactive: 6.65%

Q: Cc1cccc(C)c1OP(C)(=O)Nc1ccc(SC(F)(F)F)cc1 (centres undefined) was tested. Which activity change, negative = inhibition did it give?
A: inactive: -10.2%

Q: CP(=O)(Nc1ccc(SC(F)(F)F)cc1)Oc1ccc(Cl)cc1 (centres undefined) was tested. Which activity change, negative = inhibition did it give?
A: inactive: 3.24%

Q: With COc1ccccc1OP(C)(=O)Nc1ccccc1 (centres undefined) as the compound, how does the activity change, negative = inhibition read?
A: inactive: 2.82%

Q: CP(=O)(Nc1ccccc1Br)Oc1ccccc1 (centres undefined) was tested. Which activity change, negative = inhibition did it give?
A: inactive: -14%

Q: How did the activity change, negative = inhibition turn out when CP(=S)(Nn1cnnc1)Oc1ccccc1 (centres undefined) was run?
A: inactive: 2.32%

Q: How did the activity change, negative = inhibition turn out when COc1ccc(OP(C)(=O)Nc2cccc(F)c2)cc1 (centres undefined) was run?
A: inactive: -11.9%

Q: Which activity change, negative = inhibition does the source give for COc1ccccc1OP(C)(=O)Nc1cc(Cl)ccc1C (centres undefined) here?
A: inactive: 1.39%

Q: With CCOC(=O)c1ccc(NP(C)(=O)Oc2ccccc2)cc1 (centres undefined) as the compound, how does the activity change, negative = inhibition read?
A: inactive: -4.82%

Q: How did the activity change, negative = inhibition turn out when Cc1ccc(NP(C)(=O)Oc2ccccc2)c(C)c1 (centres undefined) was run?
A: inactive: 14.4%

Q: With COc1ccccc1OP(C)(=O)Nc1ccc(C)cc1 (centres undefined) as the compound, how does the activity change, negative = inhibition read?
A: inactive: -9.6%

Q: With Cc1cccc(C)c1OP(C)(N)=O (centres undefined) as the compound, how does the activity change, negative = inhibition read?
A: inactive: 5.67%

Q: With CC(C)(C)c1ccc(OP(C)(=O)Nc2ccc(SC(F)(F)F)cc2)cc1 (centres undefined) as the compound, how does the activity change, negative = inhibition read?
A: inactive: -9.14%

Q: For O=[N+]([O-])c1ccc2c(c1)C=Nc1ccccc1O2, which activity change, negative = inhibition is on record?
A: inactive: -1.42%

Q: Which activity change, negative = inhibition does the source give for O=[N+]([O-])c1cc([N+](=O)[O-])c(Nc2cccnc2)c([N+](=O)[O-])c1 here?
A: inactive: 0.005%

Q: How did the activity change, negative = inhibition turn out when CCN(CC)CCCOC(=O)C(O)(c1ccccc1)c1ccccc1 was run?
A: inactive: -5.88%

Q: With Cc1cc(C)cc(OP(C)(=O)Nc2ccccn2)c1 (centres undefined) as the compound, how does the activity change, negative = inhibition read?
A: inactive: -2.23%

Q: Which activity change, negative = inhibition does the source give for CP(=O)(Nc1cccc(Br)c1)Oc1ccccc1 (centres undefined) here?
A: inactive: -7.48%

Q: How did the activity change, negative = inhibition turn out when Cc1ccc(C)c(NP(C)(=O)Oc2ccccc2)c1 (centres undefined) was run?
A: inactive: 0.253%

Q: With Cc1cc(C)cc(OP(C)(=O)Nc2ccc(C)cc2C)c1 (centres undefined) as the compound, how does the activity change, negative = inhibition read?
A: inactive: -4.81%

Q: How did the activity change, negative = inhibition turn out when CCOC(=O)c1ccc(NP(C)(=O)Oc2cc(C)cc(C)c2)cc1 (centres undefined) was run?
A: inactive: -2.9%

Q: Which activity change, negative = inhibition does the source give for COc1ccccc1OP(C)(=O)Nc1cccc(Br)c1 (centres undefined) here?
A: inactive: 1.17%

Q: With CC1=NCCc2c1[nH]c1ccccc21.O=[N+]([O-])c1cc([N+](=O)[O-])c(O)c([N+](=O)[O-])c1 as the compound, how does the activity change, negative = inhibition read?
A: inactive: -0.292%

Q: CP(=O)(Nc1ccc(SC(F)(F)F)cc1)Oc1ccccc1 (centres undefined) was tested. Which activity change, negative = inhibition did it give?
A: inactive: -10.5%

Q: For COc1ccccc1OP(C)(=O)Nc1c(C)cccc1C (centres undefined), which activity change, negative = inhibition is on record?
A: inactive: -3.45%

Q: CN1CCCCC1COC(=O)C1(O)c2ccccc2CCc2ccccc21 (centres undefined) was tested. Which activity change, negative = inhibition did it give?
A: inactive: -10%

Q: How did the activity change, negative = inhibition turn out when O=[N+]([O-])c1cc([N+](=O)[O-])c(Nc2nnnn2CCO)c([N+](=O)[O-])c1 was run?
A: inactive: 1.19%

Q: How did the activity change, negative = inhibition turn out when O=[N+]([O-])c1cc([N+](=O)[O-])c(-n2nnc3ccccc32)c([N+](=O)[O-])c1 was run?
A: inactive: -0.786%

Q: For Cc1ccccc1NP(C)(=O)Nc1ccccc1C, which activity change, negative = inhibition is on record?
A: inactive: -0.063%

Q: CP(=O)(Nc1ccc2c(c1)OCCO2)Oc1ccccc1 (centres undefined) was tested. Which activity change, negative = inhibition did it give?
A: inactive: -7.3%

Q: Which activity change, negative = inhibition does the source give for CCOP(C)(=S)SCC(=O)NC(C)(CC)C(=O)O (centres undefined) here?
A: inactive: 3.38%

Q: With CP(=O)(Nc1ccc(SC(F)(F)F)cc1)Oc1ccc(F)cc1 (centres undefined) as the compound, how does the activity change, negative = inhibition read?
A: inactive: 0.261%

Q: How did the activity change, negative = inhibition turn out when Cc1cc(-c2cccc3ccccc23)c(C)cn1.O=[N+]([O-])c1cc([N+](=O)[O-])c(O)c([N+](=O)[O-])c1 was run?
A: inactive: -6%

Q: With COc1ccc(NP(C)(=O)Oc2ccccc2OC)cc1 (centres undefined) as the compound, how does the activity change, negative = inhibition read?
A: inactive: 0.0588%

Q: CN(C)CCOC(=O)C(O)(c1ccccc1)C1CCCCC1 (centres undefined) was tested. Which activity change, negative = inhibition did it give?
A: inactive: 0.833%

Q: COc1ccc(OP(C)(=O)Nc2cccc(Br)c2)cc1 (centres undefined) was tested. Which activity change, negative = inhibition did it give?
A: inactive: -0.286%

Q: CCCCCOc1ccc(NP(C)(=O)Oc2ccc(Cl)cc2Cl)cc1 (centres undefined) was tested. Which activity change, negative = inhibition did it give?
A: inactive: 4.87%

Q: With CP(=O)(Nc1ccccc1)Oc1ccc(F)cc1 (centres undefined) as the compound, how does the activity change, negative = inhibition read?
A: inactive: -3.5%

Q: With CCN(CC)CCCOC(=O)C(O)(c1ccccc1)C1CCCCC1 (centres undefined) as the compound, how does the activity change, negative = inhibition read?
A: inactive: -4.74%

Q: With COc1ccc(OP(C)(=O)Nc2ccc(SC(F)(F)F)cc2)cc1 (centres undefined) as the compound, how does the activity change, negative = inhibition read?
A: inactive: 2.8%

Q: Which activity change, negative = inhibition does the source give for CCOC(=O)c1ccc(NP(C)(=O)Oc2ccc(F)cc2)cc1 (centres undefined) here?
A: inactive: 21.7%

Q: For CC(C)c1ccc(OP(C)(=O)Nc2ccc(SC(F)(F)F)cc2)cc1 (centres undefined), which activity change, negative = inhibition is on record?
A: inactive: -0.281%

Q: For CCc1ccc(OP(C)(=O)O)cc1, which activity change, negative = inhibition is on record?
A: inactive: 0.155%

Q: For COc1ccccc1OP(C)(=O)Nc1ccc(C)cc1C (centres undefined), which activity change, negative = inhibition is on record?
A: inactive: 4.68%

Q: CP(=O)(Nc1ccccn1)Oc1ccccc1 (centres undefined) was tested. Which activity change, negative = inhibition did it give?
A: inactive: -6.16%

Q: With Cc1c(NP(C)(=O)Oc2ccc(C(C)C)cc2)c(=O)n(-c2ccccc2)n1C (centres undefined) as the compound, how does the activity change, negative = inhibition read?
A: inactive: -2.04%

Q: O=[N+]([O-])c1cc([N+](=O)[O-])c(Nc2ccccn2)c([N+](=O)[O-])c1 was tested. Which activity change, negative = inhibition did it give?
A: inactive: -0.708%

Q: CN(C)CCOC(=O)C(O)(c1ccccc1)C1CCCC1 (centres undefined) was tested. Which activity change, negative = inhibition did it give?
A: inactive: 1.67%

Q: How did the activity change, negative = inhibition turn out when COc1ccccc1OP(C)(=O)Nc1ccc(Br)cc1 (centres undefined) was run?
A: inactive: 6.05%

Q: With CP(=O)(OCCOc1ccccc1)OCCOc1ccccc1 as the compound, how does the activity change, negative = inhibition read?
A: inactive: -2.23%

Q: Which activity change, negative = inhibition does the source give for Cc1nc2ccc3ccccc3c2o1.O=[N+]([O-])c1cc([N+](=O)[O-])c(O)c([N+](=O)[O-])c1 here?
A: inactive: -10.2%

Q: For COc1ccccc1OP(C)(=O)Nc1ccc(C)c(C)c1 (centres undefined), which activity change, negative = inhibition is on record?
A: inactive: -13.7%

Q: Cc1cc(C)cc(OP(C)(=O)Nc2cccc(C(F)(F)F)c2)c1 (centres undefined) was tested. Which activity change, negative = inhibition did it give?
A: inactive: 2.8%

Q: For CP(=O)(OC12CC3CC(CC(C3)C1)C2)OC12CC3CC(CC(C3)C1)C2, which activity change, negative = inhibition is on record?
A: inactive: -5.89%

Q: How did the activity change, negative = inhibition turn out when CN(C)C(=O)c1c([N+](=O)[O-])cc([N+](=O)[O-])cc1[N+](=O)[O-] was run?
A: inactive: -13.8%

Q: For CP(=O)(Nc1ccc(Cl)cc1)Oc1ccc(F)cc1 (centres undefined), which activity change, negative = inhibition is on record?
A: inactive: -6.53%

Q: How did the activity change, negative = inhibition turn out when COc1ccccc1OP(C)(=O)Nc1ccccc1Br (centres undefined) was run?
A: inactive: -0.67%

Q: With CC(C)(C)c1ccc(OP(C)(=O)O)cc1 as the compound, how does the activity change, negative = inhibition read?
A: inactive: -7.51%

Q: For CCc1ccc(OP(C)(=O)Nc2cccnc2)cc1 (centres undefined), which activity change, negative = inhibition is on record?
A: inactive: 1.46%

Q: How did the activity change, negative = inhibition turn out when CP(=O)(Oc1ccccc1)N1CCOC1=O (centres undefined) was run?
A: inactive: -3.06%

Q: How did the activity change, negative = inhibition turn out when O=C(OCCCN1CCCC1)C(O)(c1ccccc1)C1CCCCC1 (centres undefined) was run?
A: inactive: -7.56%

Q: Which activity change, negative = inhibition does the source give for COc1ccccc1OP(C)(=O)Nc1c(C)n(C)n(-c2ccccc2)c1=O (centres undefined) here?
A: inactive: -10.6%

Q: COc1ccc(OP(C)(=O)Nc2ccc(Br)cc2)cc1 (centres undefined) was tested. Which activity change, negative = inhibition did it give?
A: inactive: -1.04%

Q: For CCN(CC)CC(O)COC(=O)C(O)(c1ccccc1)C1CCCCC1 (centres undefined), which activity change, negative = inhibition is on record?
A: inactive: -1.46%
